Compound potency records, mixed from different reports. Data source: NIAID ChemDB in PubChem.

Shared fields: target-level tests; species: Hepatitis C virus; protein: NS3 protease

Conditions beyond the fields shown may differ between rows. Two numbers with a dash give a range or band. ICn is the concentration giving n% inhibition.

compound	measure	value
CC(C)C[C@H](NC(=O)[C@@H](CC(=O)O)NC(=O)[C@@H](N)CC(=O)O)C(=O)N[C@@H](CCC(=O)O)C(=O)N[C@@H](CC1CCCCC1)C(=O)N[C@@H](CS)C(=O)O	IC50	0.12 µM
CC[C@@H](C)[C@H](NC(=O)[C@H](CC(C)C)NC(=O)[C@@H](CCC(=O)O)NC(=O)[C@H](CC(=O)O)NOC(=O)CCC(=O)O)C(=O)N[C@@H](CC1CCCCC1)C(=O)NC1(c2nn[nH]n2)CC1	Ki	0.19 µM
CC[C@H](NC(=O)[C@H](CC(C)C)NC(=O)[C@@H](NC(=O)[C@@H](NC(=O)[C@H](CC(=O)O)CC(=O)[C@H](CCC(=O)O)NC(C)=O)C(C)C)C(C)C)C(=O)C(=O)NCCc1ccccc1	Ki	<1 µM
CC(C)C[C@H](NC(=O)[C@H](CC(=O)O)NC(=O)[C@@H](N)CC(=O)O)C(=O)N[C@@H](CCC(=O)O)C(=O)N[C@@H](CC1CCCCC1)C(=O)N[C@@H](CS)C(=O)O	IC50	0.29 µM
O=C(O)c1cc(F)c(CCNC(=O)[C@H](CC(F)F)NC(=O)[C@H]2C[C@@H](C3CCCC3)CN2C(=O)C(O)C2CC2)c(F)c1	IC50	>100 µM
CC(C)C[C@H](NC(=O)[C@H](Cc1ccc(O)cc1)NC(=O)[C@@H](N)CC(=O)O)C(=O)N[C@@H](CCC(=O)O)C(=O)N[C@@H](CC1CCCCC1)C(=O)N[C@@H](CS)C(=O)O	IC50	0.135 µM
CC[C@H](NC(=O)[C@H](CC(C)C)NC(=O)[C@@H](NC(=O)[C@@H](NC(=O)[C@H](CC(=O)O)CC(=O)[C@H](CCC(=O)O)NC(C)=O)C(C)C)C(C)C)C(=O)C(=O)NCc1ccncc1	Ki	<1 µM
CC(=O)N[C@H](C(=O)N[C@H](C(=O)N1C[C@H](Oc2ccccc2)CC1C(=O)NC1(C(=O)O)CC1)C(C)C)C1CCCCC1	IC50	80 µM
CC[C@@H](C)[C@H](NC(=O)[C@H](CC(C)C)NC(=O)[C@@H](CCC(=O)O)NC(=O)[C@H](CC(=O)O)NOC(=O)CCC(=O)O)C(=O)N[C@@H](CC1CCCCC1)C(=O)NC1(C(=O)C(=O)O)CC1	Ki	0.098 µM
CC(=O)N[C@H](C(=O)N[C@H](C(=O)N1C[C@H](Oc2cccc(N3CCOCC3)c2)CC1C(=O)NC1(C(=O)O)CC1)C(C)C)C1CCCCC1	IC50	32 µM
CCCC(NC(=O)[C@H](CC1CCCCC1)NC(=O)[C@@H](NC(=O)[C@H](CC(C)C)NC(=O)[C@@H](CCC(=O)O)NC(=O)[C@H](CC(=O)O)NOC(=O)CCC(=O)O)[C@H](C)CC)C(=O)C(F)(F)C(F)(F)F	Ki	0.12 µM
O=C(O)c1cc(F)c(CCNC(=O)[C@H](CC(F)F)NC(=O)[C@H]2C[C@@H](C3CCCC3)CN2C(=O)C(O)Cc2ccccc2)c(F)c1	IC50	>100 µM
CC(=O)N[C@H](C(=O)N[C@H](C(=O)N1C[C@H](Oc2cccc(-c3ccccc3)c2)C[C@H]1C(=O)NC1(C(=O)O)CC1)C(C)C)C1CCCCC1	IC50	6 µM
CC[C@@H](C=O)NC(=O)[C@@H]1C[C@@H](OCc2ccccc2)CN1C(=O)[C@@H](NC(=O)[C@H](CSCc1ccccc1)NC(=O)c1cnccn1)C(C)C	Ki	1–100 µM
CC(C)C[C@H](NC(=O)[C@H](NC(=O)[C@@H](N)CC(=O)O)C(C)C)C(=O)N[C@@H](CCC(=O)O)C(=O)N[C@@H](CC1CCCCC1)C(=O)N[C@@H](CS)C(=O)O	IC50	0.47 µM
CC[C@@H](C=O)NC(=O)[C@@H]1C[C@@H](OCc2noc(-c3ccc(OC)cc3)n2)CN1C(=O)[C@@H](NC(=O)[C@@H](NC(=O)c1cnccn1)C(C)C)C(C)C	Ki	1–100 µM
CC(C)C[C@H](NC(=O)[C@H](NC(=O)[C@@H](N)CC(=O)O)C(c1ccccc1)c1ccccc1)C(=O)N[C@@H](CCC(=O)O)C(=O)N[C@@H](CC1CCCCC1)C(=O)N[C@@H](CS)C(=O)O	IC50	0.276 µM
CC(=O)N[C@H](C(=O)N[C@H](C(=O)N1C[C@H](Oc2ccc(-c3ccccc3)cc2)CC1C(=O)NC1(C(=O)O)CC1)C(C)C)C1CCCCC1	IC50	35 µM
CC(C)[C@H](NC(=O)[C@H](CCC(=O)O)NC(=O)[C@@H](N)CC(=O)O)C(=O)N[C@H](C(=O)N1CCC[C@H]1C(=O)NC1(B2O[C@@H]3CC4CC(C4(C)C)[C@]3(C)O2)CC1)C(C)C	Ki	1.6 µM
CC(=O)N[C@H](C(=O)N[C@H](C(=O)N1C[C@H](Oc2cccc(-c3cccc([N+](=O)[O-])c3)c2)C[C@H]1C(=O)NC1(C(=O)O)CC1)C(C)C)C1CCCCC1	IC50	6 µM
CC[C@@H](C)[C@H](NC(=O)[C@H](CC(C)C)NC(=O)[C@@H](CCC(=O)O)NC(=O)[C@H](CC(=O)O)NOC(=O)CCC(=O)O)C(=O)N[C@@H](CC1CCCCC1)C(=O)N[C@@H](CS)C(=O)O	Ki	0.928 µM

2 of the rows above, restated:

{"compound": "CC[C@H](NC(=O)[C@H](CC(C)C)NC(=O)[C@@H](NC(=O)[C@@H](NC(=O)[C@H](CC(=O)O)CC(=O)[C@H](CCC(=O)O)NC(C)=O)C(C)C)C(C)C)C(=O)C(=O)NCc1ccncc1", "measure": "Ki", "value": "<1 µM"}
{"compound": "CC(=O)N[C@H](C(=O)N[C@H](C(=O)N1C[C@H](Oc2cccc(-c3ccccc3)c2)C[C@H]1C(=O)NC1(C(=O)O)CC1)C(C)C)C1CCCCC1", "measure": "IC50", "value": "6 µM"}